Measurements reported in PubChem BioAssay AID1224833 (University of Georgia, 2016)
Assay: 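Human genes whose knock-down alters rotavirus replication in monkey cells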 (primary screen). System: monkey MA104 kidney cells. Knock-down reagent: siRNA pool against human genes, 50 nM. Timing: 48 h knock-down before infection; read 24 h after infection. Challenge: infection with rotavirus strain RV3 two days after transfection; infectious dose for this stage not given. Measured: 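z-score of rotavirus antigen signal per well, from a fluorescent immunoassay, relative to non-targeting control wells on the same plate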. Reading the numbers: z-score vs non-targeting control: higher = more rotavirus replication than with non-targeting control. Hit rule: In these data the active calls have z-score vs non-targeting control at about -1 or lower, or at about 1 or higher. Meaning of the calls: active = z-score beyond 1 either way; inactive = z-score within 1 of zero.
The deposit covers about 12,000 reagents; shown is an unselected part. About 5,600 of all reagents (46%) count as active. 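Active calls cover z-scores past 1 in both directions, so they include lowered as well as raised rotavirus replication.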

The opening 14 records, to show the layout:
gene	z-score vs non-targeting control	call
COL6A2	0.0473	inactive
MAFK	1.01	active
KIF18A	1.19	active
RBM38	-1.4	active
ZNF2	-1.24	active
SLC16A14	0.447	inactive
EFCAB14	0.16	inactive
H2AC4	-1.35	active
PTAFR	0.622	inactive
HARS1	1.25	active
ABCB1	-0.82	inactive
POLDIP3	2.71	active
TRMT2B	-0.581	inactive
H1-7	0.414	inactive

Main list, repeating the preview:
gene	z-score vs non-targeting control	call
COL6A2	0.0473	inactive
MAFK	1.01	active
KIF18A	1.19	active
RBM38	-1.4	active
ZNF2	-1.24	active
SLC16A14	0.447	inactive
EFCAB14	0.16	inactive
H2AC4	-1.35	active
PTAFR	0.622	inactive
HARS1	1.25	active
ABCB1	-0.82	inactive
POLDIP3	2.71	active
TRMT2B	-0.581	inactive
H1-7	0.414	inactive
DLX5	-0.819	inactive
EBAG9	1.07	active
TMEM125	0.517	inactive
OR10G9	1.14	active
TSPAN9	-1.34	active
USF2	-1.47	active
SLITRK1	0.922	inactive
OLR1	0.679	inactive
TBC1D7	0.973	inactive
KLHL35	1.67	active
SURF6	-0.42	inactive
RNASEH2C	-2.56	active
COLQ	-1.08	active
USP51	0.643	inactive
MEN1	2.1	active
CD300LF	-0.429	inactive
KRT33A	-0.869	inactive
GPR37L1	1.53	active
ARHGEF11	0.038	inactive
ATRN	-0.303	inactive
OR4F15	0.959	inactive
IL20RA	-0.579	inactive
GPR157	-1.59	active
PCED1A	-0.635	inactive
GORAB	-0.592	inactive
ACSM1	0.746	inactive
ALDH1A2	-1.32	active
FBLN7	-0.493	inactive
LSM6	0.754	inactive
TLN2	1.16	active
SPARC	0.0737	inactive
WNT2	0.316	inactive
BIK	-1.88	active
METRN	-0.354	inactive
CCNK	0.565	inactive
NLRP7	1.04	active
EIF4A2	0.936	inactive
POLQ	-1.47	active
ZBTB4	0.533	inactive
SPMIP2	0.713	inactive
DKK3	-0.539	inactive
RAB7B	0.938	inactive
ADAMTSL3	0.483	inactive
PTDSS2	-0.699	inactive
SPRED1	-0.975	inactive
CELF1	-0.696	inactive
MXD3	0.41	inactive
HHIP	0.367	inactive
BIN3	0.06	inactive
THAP1	-0.671	inactive
KHSRP	-3.85	active
CDC73	1.15	active
SOX4	0.643	inactive
RPP30	0.0365	inactive
SCP2D1	-1.54	active
RASD1	-1.95	active
SAP30	-1.11	active
MCRS1	-0.455	inactive
TIMM17A	-1.07	active
SEMA3B	0.408	inactive
RGS9	-0.571	inactive
COL21A1	-1.75	active
STAU2	0.4	inactive
RND3	1.41	active
PTHLH	0.297	inactive
PRSS38	2.34	active
TUBAL3	-1.02	active
LINC03042	0.682	inactive
FAM114A1	2.09	active
CHRFAM7A	-1.36	active
DENND5A	0.0244	inactive
ZFX	1.96	active
TMEM187	-0.358	inactive
FOXJ2	-1.16	active
RMDN3	1.69	active
CTC1	1.76	active
JPH1	-1.68	active
GPRASP2	-1.32	active
NDE1	-0.953	inactive
DCAF6	-1.18	active
CNTRL	0.802	inactive
RAP1B	0.836	inactive
ANXA2R	-1.13	active
GFRA2	-1.16	active
ADRA2A	-1.09	active
KAZALD1	-1.88	active
IMP3	-1.19	active
MORN1	0.863	inactive
GHSR	-1.8	active
CPSF6	-0.107	inactive
ARHGAP12	-1.3	active
ZNF10	1.12	active
CYBB	1.12	active
RBFA	0.391	inactive
SLF1	-0.606	inactive
SNX7	1.11	active
DUSP29	-1.17	active
TAS1R3	-1.14	active
RPP38	-2.76	active
OR2G2	-2.29	active
FKBP4	-1.37	active
KRT20	0.296	inactive
RIOX1	-0.523	inactive
ARHGAP5	-1.56	active
TUBA1C	0.696	inactive
CHD8	-1.07	active
CR2	1.55	active
SLC39A6	-1.33	active
KLK15	1.87	active
NOX4	-1.08	active
RHPN1	1.41	active
PLEKHJ1	-0.863	inactive
SAMD8	-1.6	active
ZNF14	-0.0431	inactive
CDS1	-0.965	inactive
MRM2	-1.01	active
LOXL2	-0.818	inactive
CGNL1	-0.534	inactive
S100A1	0.368	inactive
SLC35B1	0.176	inactive
CNBP	0.645	inactive
EIF1	0.753	inactive
POU3F1	-1.23	active
RAB11B	-3	active
RSU1	0.167	inactive
BCCIP	-0.997	inactive
